A mixed list of measured activities; the numbers were collected in NIAID ChemDB.

All rows: growth or infection tests; species: HIV-1; cells: C8166; measure: fold resistance

Fold resistance: result on the changed form divided by that on wild type.

compound,strain,mutations,read by,result
CCN1c2ncccc2NC(=O)c2cc(CCOc3ccc(-c4ccc[n+]([O-])c4)cc3C)cnc21,,RT-K103N Y181C,p24,>1
CCN1c2ncc(CCOc3cccc4c3CNC4=O)cc2C(=O)N(C)c2cccnc21,,RT-K103N Y181C,p24,1
CCN1c2ncc(CCOc3ccc(-c4ccc(C(=O)O)cc4)c(Cl)c3)cc2C(=O)N(C)c2cccnc21,,RT-K103N Y181C,p24,>1
CCN1c2ncc(CCOc3ccc(CC(C)C(=O)O)c4ccccc34)cc2C(=O)N(C)c2ccc(C)nc21,,RT-K103N Y181C,p24,1
Cc1cc(C)cc(S(=O)(=O)c2c(C(N)=O)[nH]c3c(Cl)cc(Cl)cc23)c1,,RT-K103R,cytopathic effect / MTT,>83
CCN1c2ncc(CCOc3ccc(NC(=O)CC4(C(=O)O)CCCC4)cc3C)cc2C(=O)N(C)c2cccnc21,,RT-K103N Y181C,p24,1
Cc1cccc(S(=O)(=O)c2c(C(N)=O)[nH]c3ccc(Cl)cc23)c1,Efavirenz-resistant (RT K103R V179D P225H),RT-K103R V179D P225H,cytopathic effect / MTT,52
CCN1c2ncc(CCOc3cccc4c3CNC4=O)cc2C(=O)Nc2c(C)ccnc21,,RT-K103N Y181C,p24,1
Cc1cc(C)cc(S(=O)(=O)c2c(C(=O)/C=C/C(N)=O)[nH]c3ccc(Cl)cc23)c1,IIIB,RT-Y181C,p24,10
CCN1c2nc(C(F)(F)F)ccc2NC(=O)c2cc(CCOc3cc[n+]([O-])c4ccccc34)cnc21,,RT-Y188L,p24,40.6
CCN1c2ncc(CCOc3ccc(C(=O)Nc4ccc(CC(=O)O)cc4)cc3C)cc2C(=O)N(C)c2cccnc21,,RT-K103N Y181C,p24,>1
Cc1cc(C)cc(S(=O)(=O)c2c(C(=O)NNCCO)[nH]c3ccc(Cl)cc23)c1,EFV-resistant (RT K103R V179D P225H),RT-K103R V179D P225H,p24,200
CCN1c2ncc(CCOc3ccc(C(=O)O)c4c3CCC4)cc2C(=O)N(C)c2cccnc21,,RT-K103N Y181C,p24,1
O=C(CSc1nnnn1-c1ccccc1C(F)F)Nc1ccccc1[N+](=O)[O-],RT-K103N Y181C,1(RT-K103N Y181C),p24,>2
NC(=O)c1[nH]c2ccc(Cl)cc2c1S(=O)(=O)c1ccccc1,Efavirenz-resistant (RT K103R V179D P225H),RT-K103R V179D P225H,cytopathic effect / MTT,129
CCN1c2ncc(CCOc3cccc4c3CN(O)C4=O)cc2C(=O)N(C)c2cccnc21,,RT-K103N Y181C,p24,>1
Cc1ccc(S(=O)(=O)c2c(C(N)=O)[nH]c3ccc(Cl)cc23)c(C)c1,Efavirenz-resistant (RT K103R V179D P225H),RT-K103R V179D P225H,cytopathic effect / MTT,530
CCN1c2ncc(CCOc3ccc(NS(=O)(=O)C(F)(F)F)c4ccccc34)cc2C(=O)N(C)c2ccc(F)nc21,,RT-K103N Y181C,p24,1
CCN1c2ncc(CCOc3ccc(-c4ccncc4)cc3C)cc2C(=O)N(C)c2cccnc21,,RT-K103N Y181C,p24,1
CCN1c2ncc(CCOc3cccc4c3CN(C)C(=O)N4C)cc2C(=O)N(C)c2cccnc21,,RT-K103N Y181C,p24,>1

2 of the rows above, restated:

compound,strain,mutations,read by,result
CCN1c2ncc(CCOc3ccc(C(=O)Nc4ccc(CC(=O)O)cc4)cc3C)cc2C(=O)N(C)c2cccnc21,,RT-K103N Y181C,p24,>1
Cc1cccc(S(=O)(=O)c2c(C(N)=O)[nH]c3ccc(Cl)cc23)c1,Efavirenz-resistant (RT K103R V179D P225H),RT-K103R V179D P225H,cytopathic effect / MTT,52

Conditions beyond the fields shown may differ between rows. An empty or dashed field is not shown.